Measurements published in the supplement of paper PMC9931576.
Human monoclonal antibodies against the spike receptor-binding domain (heavy:light variable regions). IC50 against pseudoviruses bearing the spike of naturally observed variants; lower = stronger; >10 µg/ml means not reached at the top dose. No active / inactive call. The stated detection limit is 0.0005 µg/ml; values near or below 0.001 µg/ml lie at the floor of the assay.

B1: BD57-0157 (protein)
chain 1: QVQLVQSGAEVKKPGSSVKVSCRASGDTFNNFPVSWVRQAPGQGLEWMGGIIPIFGTANYAHKFQGRVTITADESTSTVYMELSSLRSEDTAIYYCARDVWYCSSTSCDSGGYYYSYMDVWGKGTTVTVSS
chain 2: EIVLTQSPGTLSLSPGERATLSCRASQSLGNIYLAWYQQKPGQAPRLLIFGASSRATGIPDRFSGSGSGTDFTLTISSLEPEDFAVYYCQQYGSSPITFGQGTRLEIK
B2: BD57-0162 (protein)
chain 1: QVQLVQSGAEVKKPGSSVKVSCKASGGTFSNYGFTWVRQAPGQGLEWVGGIIPMFGTLNYGQRVHDRVTITADESTSTVYMELSSLISEDTAIYYCIARWARANYYSYFLDVWAKGTTVTVSS
chain 2: EIVMTQSPATLSVSPGERATLSCRASQSISTNLAWYQQKPGQAPRLLIYGASTRATGIPARFSGSGSETEFTLIISSLQSEDSGVYYCQRYNNWPLWTFGQGTQVEIK
B3: BD57-0164 (protein)
chain 1: EVQLVESGGGLVKPGGSLRLSCAASGITFTNAWVTWVRQTPGKRLEWVGRIKSKTDGGTTDYTAPVKGRFTISRDDSKNTVYLQMNSLKTDDTAVYYCTTVSWIHQWLVGEDNAFDIWGQGTMVTVSS
chain 2: EIVLTQSPGTLSLSPGERATLSCRASQTFSSTYLAWYQQKPGQAPRLLIYGALSRASGIPDRFSGSGSGTDFTLTISRLEPEDFAVYYCQQYYSSPYTFGQGTKLEIK
B4: BD57-0167 (protein)
chain 1: EVQLVQSGAEVKKSGESLEISCKASGYSFNTYWIGWVRQMPGRGLEWMGIVYPGDSDTNYSPSFQGQVTISADKSISTAYLQWSSLKASDTAIYYCARRSQTVGNFDYWGQGILVTVSS
chain 2: SYVLTQTPSVSVAPGKTASITCGGKNIGSKSVHWYQQRPGQAPILVISFDHDRPSGIPERFSGSKSGNTATLTISRVEAGDEADYYCQVWDSNSDLYVFGPGTSVTVL
B5: BD57-0168 (protein)
chain 1: QVQLVQSGAEVKKPGSSVKVSCKTSGGSFGTYGISWVRQAPGQGLEWMGGIIPMVGRPTYAQRFQGRVTITADESTTTAYLEMRSLTFQDTAVYYCARDSTLREWKPGLTWFDPWGQGTLVTVSS
chain 2: DIQMTQSPSSLSASVGDRVTFTCRASQSISDFLNWYQQKPGEAPKLLIYAASTLQGGVPSRFSGSGSGTDFTLTISSLQPEDFATYYCQQSYSAPRTFGQGTKVDIK
B6: BD57-0171 (protein)
chain 1: EVQLVQSGAEVKKPGESLKISCKGFGYSFSNYWIGWVRQMPGKGLEWMGIIYNVDSDTRYNPAFQGQVTISADNSISTAYLQWSSLKASDSAIYYCVRQHTSGWWAGDSWGQGTLVTVSS
chain 2: EIVMTQSPATLSVSPGEGATLSCRASQSVSSNLAWYQQKPGQAPRLLFYGASTRATGIPARFSASGSGTEFTLSISSLQSEDFAVYYCQQYNNWPPWTFGQGTKVDIK
B7: BD57-0176 (protein)
chain 1: QVQLQESGPGLVKPSETLSLTCTVSGGSITGYYWSWIRQPPGKRLESIAYFYSTGNTNYNPSLESRVTISVDTSKNQISLKLTSVTVADTAIYYCARHPTVSDSRYDLYIDYWGQGTLVTVSS
chain 2: DIQMTQSPSILSASVGDRVTITCRASQIISGWLAWYQQKPGKAPKLLIYEASRLQTGVPSRFSGSGYGTEFTLTISSLQPGDFATYYCQEYKTFSPWTFGPGTKVEIK
B8: BD57-0177 (protein)
chain 1: QVQLVQSGVEVKKPGSSVKVSCQASGGSFSSYAISWMRQAPGQGLEWLGGIIPIFGTAHYAQKFQGRVTITADRSTTTAYMEMRSLTSEDTAVYYCAKDSPDRSSSPARPSFYYYEMDVWGQGTTVIVSS
chain 2: DIQMTQSPSPLSASVGDRVTITCQASQAISNHLNWYQQKPGRAPRLLIYDASILETGVPSRFSASGSGTDFTFTISSLQPEDIATYYCQQYDDLPITFGQGTRLEIK
B9: BD57-0181 (protein)
chain 1: QVQLQESGPGLVKPSQALSLTCSVSGGSISSGGHYWNWIRQHPEKGLEWIGNIYYSGSTNYNPSLKRRVTMSVDTSKNQFSLSLTSVTAADTAVYYCARDFGGNANYFAFWGQGTLVTVSS
chain 2: DIQMTQSPSSLSASVGDKVTITCQASQDISNYLSWYQQKPGKAPKLLIYDASNLETGVSLRFSGRGSGTHFTFTISSLQPEDIATYFCQQYNNVPITFGQGTRLEIK
B10: BD57-0183 (protein)
chain 1: EVQLVAWGGGLVQPGRSLRLSCAASGFTFDDYAMHWVRQAPGKGLEWVSSFNRKTATILYADSVKGRFTISRDSAKNSLFLQMNSLRAEDTAFYYCVKSPAVVADDYYFDYWGQGTLVTVSS
chain 2: SYDLTQPPSVSVSPGQTARITCSGDAFPNLYSYWYQQKPGQAPVLVIYKDIERPSGIPERFSGSTSGTTVTLTISGVQAEDEADYYCQSADSSGTRFGGGTKLTVL
B11: BD57-0184 (protein)
chain 1: EVQLVQSGTEVKKPGESLKISCKGSGFSFISYWIGWVRQMPGKGLEWMGIIYPGDSDTIYSPSFQGQVTISADKSISAAYLQWNSLQASDTAMYYCARRDSGSYSGFFDSWGQGTLVTVSS
chain 2: QSVLTQPPSASGTPGQRVTISCSGSSSNIGSNPVSWYQQLPGTAPKLLIYNNNQRPSGVPDRFSGSKAGTSASLAMSGLQSEDEADYYCASWDDSLNGGVFGGGTKLSVL
B12: BD57-0186 (protein)
chain 1: QVQLVQSGAEVKKPGSSVRVSCKASGGTLSNNAINWVRQAPGQGLEWMGRLTPILGTANYAQRFQGRVTITADKSTNTAYMDLSSLRSEDTAVYYCARGVVVVSATDDYSYYYGLDVWGQGTTVTVSS
chain 2: SYELTQPPSVSVSPGQTARITCSGDALPKQYAYWYQQKPGQAPVMVINKDSERPSEIPERFSGSTSGTTVTLTISGVQAEDEADYYCQSADSAGTSVLFGGGTKLTVL

What follows are binders tested against SARS-CoV-2 Omicron BA.1 spike pseudovirus (assay: pseudovirus neutralization IC50; higher = weaker neutralization).
Procedure: (§1)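 Single-round VSV luciferase pseudovirus mixed with antibody dilutions for 1 h and put on Huh-7 cells for about a day; IC50 from the dose curve.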

Binder | pseudovirus neutralization IC50 [µg/mL]
B1 | 0.699
B2 | > 10
B3 | 0.54
B4 | 0.538
B5 | 0.233
B6 | > 10
B7 | > 10
B8 | 0.0762
B9 | 1.6
B10 | > 10
B11 | 0.422
B12 | 0.341

The binders below were run against SARS-CoV-2 Omicron BA.2 spike pseudovirus in the same assay as above.
Procedure: as §1

Binder | pseudovirus neutralization IC50 [µg/mL]
B1 | 1.28
B2 | > 10
B3 | 1.02
B4 | 1.03
B5 | 0.235
B6 | > 10
B7 | 0.0374
B8 | 0.057
B9 | 1.67
B10 | > 10
B11 | 0.615
B12 | 0.615

The binders below were run against SARS-CoV-2 Omicron BA.2.75 spike pseudovirus in the same assay as above.
Procedure: as §1

Binder | pseudovirus neutralization IC50 [µg/mL]
B1 | 0.943
B2 | > 10
B3 | 0.658
B4 | 0.49
B5 | 0.00124
B6 | > 10
B7 | > 10
B8 | 0.0721
B9 | 1.67
B10 | > 10
B11 | 0.59
B12 | 0.421

Each binder was assayed against SARS-CoV-2 Omicron BA.5 spike pseudovirus in the same assay as above.
Procedure: as §1

Binder | pseudovirus neutralization IC50 [µg/mL]
B1 | 1.39
B2 | > 10
B3 | 2.23
B4 | 0.682
B5 | 0.817
B6 | 1.81
B7 | 0.0396
B8 | 0.0832
B9 | > 10
B10 | > 10
B11 | 0.495
B12 | 0.944

The binders below were run against SARS-CoV-2 Omicron BQ.1.1 spike pseudovirus in the same assay as above.
Procedure: as §1

Binder | pseudovirus neutralization IC50 [µg/mL]
B1 | > 10
B2 | > 10
B3 | 2.3
B4 | 0.796
B5 | 0.855
B6 | > 10
B7 | 2.37
B8 | > 10
B9 | > 10
B10 | > 10
B11 | 0.654
B12 | 2.2

Each binder was assayed against SARS-CoV-2 Omicron XBB spike pseudovirus in the same assay as above.
Procedure: as §1

Binder | pseudovirus neutralization IC50 [µg/mL]
B1 | > 10
B2 | > 10
B3 | 1.92
B4 | 0.825
B5 | > 10
B6 | > 10
B7 | > 10
B8 | > 10
B9 | 1.4
B10 | > 10
B11 | 1
B12 | 1.96

Each binder was assayed against SARS-CoV-2 early D614G spike pseudovirus in the same assay as above.
Procedure: as §1

Binder | pseudovirus neutralization IC50 [µg/mL]
B1 | > 10
B2 | > 10
B3 | 2.8
B4 | 1.82
B5 | 0.00073
B6 | 0.00312
B7 | 0.000892
B8 | 0.027
B9 | > 10
B10 | > 10
B11 | 0.952
B12 | 1.25
